Compound potency records, mixed from different reports. Data source: NIAID ChemDB in PubChem.

Common to all: whole-cell or culture tests; species: Hepatitis C virus; measure: EC50

An empty or dashed field is not shown. ECn: concentration that inhibits the pathogen or its effect by n%. a–b is a range or a potency band. Rows are shuffled and stem from different studies.

smiles | strain or isolate | read by | conditions | value
CCCC(NC(=O)[C@@H]1C2CCCC2CN1C(=O)[C@@H](NC(=O)[C@@H](NC(=O)Cc1nn[nH]n1)C1CCCCC1)C(C)(C)C)C(=O)C(=O)NC1CC1 |  |  |  | >50 µM
CCC[C@H](NC(=O)[C@@H]1C[C@@H](Oc2nc(-c3ccccn3)nc3sccc23)CN1C(=O)[C@@H](NC(=O)NC(C)(C)C)C(C)(C)C)C(=O)C(=O)NC1CC1 | 1b | replicon |  | <1 µM
CCOc1nc(NCc2ccc(F)cc2)nc2ccc(-c3ccc(F)nc3)nc12 |  | replicon |  | <0.1 µM
Cc1ccc(C(=O)N(c2cc(-c3ccc(-c4cc5ncccn5n4)cc3)sc2C(=O)O)C(C)C)c(C)c1 | 1a | luciferase / replicon |  | 0.1–0.5 µM
Nc1ncnc2c1cnn2[C@@H]1O[C@H](/C=C/P(=O)(O)O)[C@@H](O)[C@H]1O |  | replicon |  | >100 µM
NS(=O)(=O)c1ccc(CNc2nc(OC3CCCC3)c3nc(-c4ccc(F)cc4)ccc3n2)cc1 |  | replicon |  | <0.1 µM
CC(C)(C)OC(=O)N[C@@H]1CCCCC/C=C\[C@@H]2C[C@@]2(C(=O)NS(=O)(=O)C2CC2)NC(=O)[C@@H]2C[C@@H](OC(=O)N3Cc4cccc(F)c4C3)CN2C1=O | 1a | replicon |  | 0.002 µM
COc1c(-c2cccc3ccccc23)cnn([C@@H]2C[C@H]3C(=O)N[C@]4(C(=O)NS(=O)(=O)C5CC5)CC4/C=C\CCCCCC[C@H](NC(=O)c4cccs4)C(=O)N3C2)c1=O | 1b | replicon |  | 0.0002 µM
Nc1nc(N2CCOCC2)c2nc(-c3cc4ccccc4s3)cnc2n1 |  |  |  | 0.3–1 µM
Cc1cc(C)n2nc(CC3=C(O)CC(CCc4ccc(C(C)(C)C#N)c(Cl)c4)(C4CCCC4)OC3=O)nc2n1 | WT | replicon |  | 0.05 µM
COC(=O)[C@@H](NC(=O)N[C@H](C(=O)N1CC[C@H]2[C@H]1C1(CCC1)C(=O)N2C(=O)C1CC1)C(C)C)C(C)C |  |  |  | 0.38 µM
CC(C)N(C(=O)c1ccc(Cl)cc1Cl)c1cc(-c2ccc(-c3cn4ccsc4n3)cc2)sc1C(=O)O | 1b | luciferase / replicon |  | 0.1–0.5 µM
CC1CCC(C(=O)N(c2cc(-c3ccc(NC(=O)c4cnccn4)cc3)sc2C(=O)O)C(C)C)CC1 | 1a | replicon |  | <0.5 µM
CC(C)[C@H](NC(=O)NCC(F)(F)F)C(=O)N1CC[C@H]2[C@H]1C1(CCC1)C(=O)N2C(=O)C1CC1 |  |  |  | 3.5 µM
O=C(/C=C/c1ccc(O)cc1)c1ccc(O)cc1O | 1b | replicon |  | 6.2 µg/mL
N#CC1(Nc2nc(NCc3ccc(S(N)(=O)=O)cc3)nc3ccc(-c4ccc(F)cc4)nc23)CC1 |  | replicon |  | <0.1 µM
COc1ccc2c(c1)C=C(C(=O)N1C3CCC1CN(C1CC1)C3)Cn1c-2c(C2CCCCC2)c2ccc(C(=O)NS(=O)(=O)N(C)C)cc21 |  | replicon |  | 0.001–0.5 µM
CC(C)(C)OC(=O)N1[C@H](CO)CC(F)(F)[C@H]1n1cnc2c(N)ncnc21 |  | replicon |  | >10 µM
CCCCOC(=O)[C@H](C)NP(=O)(/C=C/[C@@H]1C[C@@H](O)[C@H](n2cnc3c(N)nc(N)nc32)O1)N[C@@H](C)C(=O)OCCCC |  | replicon |  | 10–100 µM
CCCC(NC(=O)[C@@H]1C[C@@H](OC(=O)N2CCc3ccccc3C2)CN1C(=O)[C@@H](NC(=O)[C@@H](NC(=O)CCCCC(=O)O)C(C)C)C(C)C)C(=O)C(=O)NC1CC1 |  |  |  | >50 µM
O=C(O)c1sc(-c2ccc(-c3cc4ncccn4n3)cc2)cc1N(C(=O)c1ccc(Cl)cc1F)C1CCOCC1 | 1b | luciferase / replicon |  | 0.01–0.05 µM
C=CCNC(=O)N[C@H](C(=O)N1CC[C@H]2[C@H]1C1(CCC1)C(=O)N2C(=O)C1CC1)C(C)C |  |  |  | 1.6 µM
COc1cccc2c1C=C(C(=O)N1CC3CCC(C1)N3C(=O)OC(C)(C)C)Cn1c-2c(C2CCCCC2)c2ccc(C(=O)NS(=O)(=O)N(C)C)cc21 |  | replicon |  | 0.001–0.5 µM
CCCC(NC(=O)[C@@H]1C2CCCC2CN1C(=O)[C@@H](NC(=O)[C@@H](NC(=O)Cc1nn[nH]n1)C(C)CC)C(C)(C)C)C(=O)C(=O)NC1CC1 |  |  |  | >50 µM
N[C@@H](CO)C(=O)Nc1ccc(-c2ccc3nc(NCc4ccc(S(N)(=O)=O)cc4)nc(NC4CC4)c3n2)cc1 |  | replicon |  | <0.1 µM
OC[C@@H]1C[C@@H](O)[C@H](n2cnc3c(Cc4ccccc4)ncnc32)O1 |  | replicon |  | >10 µM
CC(C)(C)OC(=O)N1[C@H](CO)CC(F)(F)[C@H]1n1ccc(=O)[nH]c1=O |  | replicon |  | >10 µM
CC1CCC(C(=O)N(CC2CC2)c2cc(-c3ccc(NC(=O)c4cnccn4)cc3)sc2C(=O)O)CC1 | 1a | replicon |  | <0.5 µM
C[C@@H](NC(=O)OCc1ccccc1)C(=O)Nc1ccc(C2SC(=Nc3cccc(F)c3)N(Cc3ccco3)C2=O)cc1 |  |  |  | 1 µM
O=C(N[C@@H]1CCCCC/C=C\[C@@H]2C[C@@]2(C(=O)NS(=O)(=O)c2ccc3c(c2)B(O)OC3)NC(=O)[C@@H]2C[C@@H](OC(=O)N3Cc4cccc(F)c4C3)CN2C1=O)OC1CCCC1 |  | replicon |  | 0.08 µM
CCC[C@H](NC(=O)[C@@H]1C[C@@H](Oc2cc(-c3ccccn3)nc3ccsc23)CN1C(=O)[C@@H](NC(=O)NC(C)(C)C)C(C)(C)C)C(=O)C(=O)NC1CC1 | 1b | replicon |  | <1 µM
COc1c(-c2ccc3cc(NS(C)(=O)=O)ccc3c2)cc(-n2ccc(=O)[nH]c2=O)cc1C(C)(C)C | genotype 1b Con1 | luciferase | 0% human plasma | 0.0018 µM
CC(C)(C)OC(=O)N1[C@H](CO)CC(F)(F)[C@@H]1n1cc(F)c(=O)[nH]c1=O |  | replicon |  | >10 µM
O=C(O)c1sc(-c2ccc(-c3cc4ncccn4n3)cc2)cc1N(C(=O)c1ccc(Cl)cc1Cl)C1CCOC1 | 1a | luciferase / replicon |  | 0.01–0.05 µM
CC(C)(C)OC(=O)N1[C@H](CO)CC(F)(F)[C@H]1n1cnc2ncnc(Cl)c21 |  | replicon |  | >10 µM
Nc1ncnc2c1nnn2[C@@H]1O[C@H](/C=C/P(=O)(O)O)[C@@H](O)[C@H]1O |  | replicon |  | >100 µM
OC[C@@H]1C[C@@H](O)[C@H](n2cnc3c(COCc4ccccc4)ncnc32)O1 |  | replicon |  | >10 µM
Nc1ncnc2c1nnn2[C@@H]1O[C@H](/C=C/P(=O)(O)O)C[C@H]1O |  | replicon |  | >100 µM
CC(C)N(C(=O)c1ccc(Cl)cc1Cl)c1cc(-c2ccc(-c3nn[nH]n3)cc2)sc1C(=O)O | 1a | replicon / ELISA |  | 1–5 µM
O=C(Nc1ccc(-c2cc(N(CC3CC3)C(=O)C3CCC(C(F)(F)F)CC3)c(C(=O)O)s2)cc1)c1cscn1 | 1b | replicon |  | <0.5 µM
CCC[C@@H](NC(=O)[C@@H]1CC2CCCCC2N1C(=O)[C@@H](NC(=O)[C@@H](NC(=O)c1cnccn1)C1CCCCC1)C(C)(C)C)C(=O)C(=O)NC1CC1 |  |  |  | 1.1 µM
CCOc1nc(NCc2c(F)cc(Cl)cc2F)nc2ccc(-c3ccc(F)cc3)nc12 |  | replicon |  | <0.1 µM
COc1ccc2c(c1)C=C(C(=O)N1C3CCC1CN(C)C3)Cn1c-2c(C2CCCCC2)c2ccc(C(=O)NS(=O)(=O)C3CC3)cc21 |  | replicon |  | 0.001–0.5 µM
CC(C)(C)OC(=O)N1[C@H](CO)CC(F)(F)[C@@H]1n1cnc2ncnc(Cl)c21 |  | replicon |  | >10 µM
CC1CCC(C(=O)N(c2cc(-c3ccc(NC(=O)c4ccsc4)cc3)sc2C(=O)O)C(C)C)CC1 | 1b | replicon |  | <0.5 µM
CC(C)[C@H](NC(N)=O)C(=O)N1CC[C@H]2[C@H]1C1(CCC1)C(=O)N2C(=O)C1CC1 |  |  |  | 2.2 µM
CC1CCC(C(=O)N(CC2CC2)c2cc(-c3ccc(NC(=O)c4cn(C)cn4)cc3)sc2C(=O)O)CC1 | 1a | replicon |  | <0.5 µM
CN1CC2CCC(C1)N2C(=O)C1=Cc2c(OC(C)(F)F)cccc2-c2c(C3CCCCC3)c3ccc(C(=O)NS(=O)(=O)N(C)C)cc3n2C1 |  | replicon |  | >0.5 µM
Oc1cc(O)cc(-c2cc3ccc(O)cc3o2)c1 |  | replicon |  | >100 µM
CC(C)[C@H](NC(=O)N[C@H](C(=O)N1CC[C@H]2[C@H]1C1(CCC1)C(=O)N2C(=O)C1CC1)C(C)C)C(=O)N1CCN(c2ncccn2)CC1 |  |  |  | 0.3 µM
OC[C@@H]1C[C@@H](O)[C@H](n2cnc3c(-c4ccsc4)ncnc32)O1 |  | replicon |  | >10 µM
CCCCOC(=O)[C@H](C)NP(=O)(/C=C/[C@@H]1C[C@@H](O)[C@H](n2cnc3c(N)ncnc32)O1)N[C@@H](C)C(=O)OCCCC |  | replicon |  | <10 µM
CC(C)(C)OC(=O)N1[C@H](CO)CC(F)(F)[C@@H]1n1cnc2c(Cl)ncnc21 |  | replicon |  | >10 µM

3 of the rows above, restated:

smiles | strain or isolate | read by | conditions | value
COc1c(-c2ccc3cc(NS(C)(=O)=O)ccc3c2)cc(-n2ccc(=O)[nH]c2=O)cc1C(C)(C)C | genotype 1b Con1 | luciferase | 0% human plasma | 0.0018 µM
CCCC(NC(=O)[C@@H]1C[C@@H](OC(=O)N2CCc3ccccc3C2)CN1C(=O)[C@@H](NC(=O)[C@@H](NC(=O)CCCCC(=O)O)C(C)C)C(C)C)C(=O)C(=O)NC1CC1 |  |  |  | >50 µM
CC(C)(C)OC(=O)N1[C@H](CO)CC(F)(F)[C@@H]1n1cnc2c(Cl)ncnc21 |  | replicon |  | >10 µM